What all share (assay): cell-based or functional assay
Test [1] addresses SARS-CoV-2 Omicron BQ.1 spike protein (SARS-CoV-2).
In test [2] the target is SARS-CoV-2 Omicron XBB spike protein (SARS-CoV-2).
The target in test [3] is SARS-CoV-2 Omicron CH.1.1 spike protein (SARS-CoV-2).
Test [4] addresses SARS-CoV-2 Omicron BQ.1.1 spike protein (SARS-CoV-2).
The target in test [5] is SARS-CoV-2 Omicron BA.2.75.2 spike protein (SARS-CoV-2).
The target in test [6] is SARS-CoV-2 Omicron XBB1.5 spike protein (SARS-CoV-2).
The target in test [7] is SARS-CoV-2 Omicron BA.4/5 spike protein (SARS-CoV-2).
For test [8], the target named is SARS-CoV-2 spike (S) protein, Omicron sublineage XBB (SARS-CoV-2).
Test [9] concerns the target SARS-CoV-2 spike (S) protein, Omicron sublineage BQ.1 (SARS-CoV-2).
For test [10], the target named is SARS-CoV-2 spike (S) protein, Omicron sublineage BQ.1.1 (SARS-CoV-2).
Test [11] has as its target SARS-CoV-2 spike (S) protein, Omicron sublineage BA.4/5 (SARS-CoV-2).
Test [12] has as its target T1, SARS-CoV-2 spike (S) protein, Omicron sublineage XBB1.5 (SARS-CoV-2).
The target in test [13] is SARS-CoV-2 spike (S) protein, Omicron sublineage CH.1.1 (SARS-CoV-2).
The target in test [14] is SARS-CoV-2 spike (S) protein, Omicron sublineage BA.2.75.2 (SARS-CoV-2).
In test [15] the target is SARS-CoV-2 spike (S) protein, Omicron sublineage BF.7 (SARS-CoV-2).
Test [16] addresses T1, SARS-CoV-2 spike (S) protein, Omicron …. The source holds these as a separate data set.

Like-named read-outs stand apart in the source and are kept apart here.

B1: MX1043 (bispecific antibody)
chain: EIVLTQSPGTLSLSPGETATLSCRASQSFSSDLAWYQQKPGQAPRLLIYGASSRATGIPDRFSGSGSGTDFTLTISRLEPADFAVYYCQQYGSSPPVTFGGGTKVEIKGGSSGQTVVTQEPSFSVSPGGTVTLTCGLSSGSVSTAYFPSWYQQTPGQAPRTLIYGTNTRSSGVPDRFSGSILGNKAALTITGAQADDESDYYCVLYMGRGIVVFGGGTKLTVLGGGGSGGSGSGGGGSASGSGQVQLVESGGGVVQPGRSLRLSCAASGFTLSSYGMHWVRQAPGKGLEWVAVISYDGSNKYYVDSVKGRFTISRDNSKNTLYLQMNSLRAEDTAVYYCRWAYWELLPDYYYGMDVWGQGTTVTVSSGGSSGEVQLVESGGGLIQPGGSLRLSCAASGVIVSYNYMNWVRQAPGKGLEWVSVIYSGGSTFYADSVRGRFTISRDNSKNTLYLQMNSLRAEDTAVYYCARDLGPAGAFDIWGLGTMVTVSSASGGSGDKTHTCPPCPAPELLGGPSVFLFPPKPKDTLMISRTPEVTCVVVDVSHEDPEVKFNWYVDGVEVHNAKTKPREEQYNSYVVSVLTVLHQDWLNGKEYKCKVSNKALPAPIEKTISKAKGQPREPQVYTLPPSRDELTKNQVSLTCLVKGFYPSDIAVEWESNGQPENNYKTTPPVLDSDGSFFKKLTVDKSRWQQGNVFSCSVLHEALHSHYTQKSLSLSPG
B1: the “IC50, pseudovirus neutralization” value amounted to 2.64 ng/mL in test [1]; 2.17 ng/mL in test [2]; 45 ng/mL in test [3]; 2.35 ng/mL in test [4]; 2.06 ng/mL in test [5]; 68.7 ng/mL in [6]. Also, in [7], the “IC50, pseudovirus neutralization” value is 3.74 ng/mL. For the same molecule, the “IC80, pseudovirus neutralization” value in test [1] came to 15.1 ng/mL; in test [2], 7.05 ng/mL; in [3], 232 ng/mL; in test [4] it was 12.3 ng/mL; in [5], 4.01 ng/mL; in [6], 155 ng/mL. Moreover, the “IC80, pseudovirus neutralization” value in test [7] came to 10.7 ng/mL.

B2: MX1055 (trispecific antibody)
chain 1: EIVMTQSPAILSVSPGERATLSCRASQSVAINLAWYQQKPGQAPRLLIYAASSRATGIPGRFSGSGSETNFTLTISSLQSGDFAVYYCQQYITWPPSYTFGQGTKLEIKGGSSGDTVMTQSPLSLPVTPGEPASISCRSSQSLLNSNGYNYLDWYVQKPGQSPQLLIYLGSNRASGVPDRFSGSGSGTDFTLKISRVEAEDVGVYYCMQPLQTPLFTFGPGTKVEIKGGGGSGGSGSGGGGSASGSGQVTLRESGPALVKPTQTLTLTCTFSGFSLSTRGVCVSWIRQPPGKALEWLAFIDWDDDKYYNTSLKTRLTISKDTSKNQVVLTMTNVHPVDTATYYCARISSHHGSSWCTTFDYWGQGALVTVSAGGSSGEVQLVESGGALIQPGGSLRLSCAASGIIVSANYMSWVRQAPGKGLEWVSVIYSGGSTFYADSVKGRFTISRDNSKNTLYLEMNSLRAEDTAVYYCARDAPILGVSDWGQGTLVTVSSASGGSGDKTHTCPPCPAPELLGGPSVFLFPPKPKDTLMISRTPEVTCVVVDVSHEDPEVKFNWYVDGVEVHNAKTKPREEQYNSYVVSVLTVLHQDWLNGKEYKCKVSNKALPAPIEKTISKAKGQPREPQVYTLPPCRDELTKNQVSLWCLVKGFYPSDIAVEWESNGQPENNYKTTPPVLDSDGSFFKKLTVDKSRWQQGNVFSCSVLHEALHSHYTQKSLSLSPG
chain 2: DTVMTQSPLSLPVTPGEPASISCRSSQSLLNSNGYNYLDWYVQKPGQSPQLLIYLGSNRASGVPDRFSGSGSGTDFTLKISRVEAEDVGVYYCMQPLQTPLFTFGPGTKVEIKGGSSGQTVVTQEPSFSVSPGGTVTLTCGLSSGSVSTAYFPSWYQQTPGQAPRTLIYGTNTRSSGVPDRFSGSILGNKAALTITGAQADDESDYYCVLYMGRGIVVFGGGTKLTVLGGGGSGGSGSGGGGSASGSGQVQLVESGGGVVQPGRSLRLSCAASGFTLSSYGMHWVRQAPGKGLEWVAVISYDGSNKYYVDSVKGRFTISRDNSKNTLYLQMNSLRAEDTAVYYCRWAYWELLPDYYYGMDVWGQGTTVTVSSGGSSGQVTLRESGPALVKPTQTLTLTCTFSGFSLSTRGVCVSWIRQPPGKALEWLAFIDWDDDKYYNTSLKTRLTISKDTSKNQVVLTMTNVHPVDTATYYCARISSHHGSSWCTTFDYWGQGALVTVSAASGGSGDKTHTCPPCPAPELLGGPSVFLFPPKPKDTLMISRTPEVTCVVVDVSHEDPEVKFNWYVDGVEVHNAKTKPREEQYNSYVVSVLTVLHQDWLNGKEYKCKVSNKALPAPIEKTISKAKGQPREPQVCTLPPSRDELTKNQVSLSCAVKGFYPSDIAVEWESNGQPENNYKTTPPVLDSDGSFFLVSKLTVDKSRWQQGNVFSCSVLHEALHSHYTQKSLSLSPG
As to B2, the “IC50, pseudovirus neutralization” value in test [8] was determined as 8.39 ng/mL; in test [9], 16 ng/mL; in test [10], 0.12 ng/mL; in test [11] it was 1.3 ng/mL; in test [12], 23.6 ng/mL; in test [13], 125 ng/mL. In addition, the “IC50, pseudovirus neutralization” value in [14] is 2.32 ng/mL. The “IC80, pseudovirus neutralization” value amounted to 32.7 ng/mL in test [8]; 60.6 ng/mL in [9]; 3.41 ng/mL in test [10]; 3.32 ng/mL in test [11]; 67.9 ng/mL in test [12]; 862 ng/mL in test [13]. For the same molecule, the “IC80, pseudovirus neutralization” value in test [14] came out at 7.23 ng/mL.

B3: A46 + E12 + B8 + A58VGLTG (other)
VH 1: QVQLVESGGGVVQPGRSLRLSCAASGFTLSSYGMHWVRQAPGKGLEWVAVISYDGSNKYYVDSVKGRFTISRDNSKNTLYLQMNSLRAEDTAVYYCRWAYWELLPDYYYGMDVWGQGTTVTVSS
VL 1: QTVVTQEPSFSVSPGGTVTLTCGLSSGSVSTAYFPSWYQQTPGQAPRTLIYGTNTRSSGVPDRFSGSILGNKAALTITGAQADDESDYYCVLYMGRGIVVFGGGTKLTVL
VH 2: EVQLVESGGGLIQPGGSLRLSCAASGVIVSYNYMNWVRQAPGKGLEWVSVIYSGGSTFYADSVRGRFTISRDNSKNTLYLQMNSLRAEDTAVYYCARDLGPAGAFDIWGLGTMVTVSS
VL 2: EIVLTQSPGTLSLSPGETATLSCRASQSFSSDLAWYQQKPGQAPRLLIYGASSRATGIPDRFSGSGSGTDFTLTISRLEPADFAVYYCQQYGSSPPVTFGGGTKVEIK
VH 3: EVQLVESGGALIQPGGSLRLSCAASGIIVSANYMSWVRQAPGKGLEWVSVIYSGGSTFYADSVKGRFTISRDNSKNTLYLEMNSLRAEDTAVYYCARDAPILGVSDWGQGTLVTVSS
VL 3: EIVMTQSPAILSVSPGERATLSCRASQSVAINLAWYQQKPGQAPRLLIYAASSRATGIPGRFSGSGSETNFTLTISSLQSGDFAVYYCQQYITWPPSYTFGQGTKLEIK
VH 4: QMQLVQSGPEVKKPGTSVKVSCKASGFTFTSSAVQWVRQRQRLEWIGWIVVGSGNTNYAQKFQERVTITRDMSTSTAYMELSSLRSEDTAVYYCAAPNCSNVVCYDGFDIWGQGTMVTVSS
VL 4: EIVLTQSPGTLSLSPGERATLSCRASQSVSSSYLAWYQQKPGQAPRLLIYSASSRATGIPDRFSGSGSGTDFTLTISRLEPEDFAVYFCQQYVGLTGWTFGQGTKVEIK
As for B3, in test [15], the “IC50, pseudovirus neutralization” value stood at 17.4 nM and the “IC80, pseudovirus neutralization” value was determined as 20 nM. Further, in test [16], the “IC50, pseudovirus neutralization” value was found to be 15.3 nM and the “IC80, pseudovirus neutralization” value is 30.6 nM.

B4: A46 + E12 + E8 + A58VGLTG (other)
VH 1: B3 VH 1
VL 1: B3 VL 1
VH 2: B3 VH 2
VL 2: B3 VL 2
VH 3: QVTLRESGPALVKPTQTLTLTCTFSGFSLSTRGVCVSWIRQPPGKALEWLAFIDWDDDKYYNTSLKTRLTISKDTSKNQVVLTMTNVHPVDTATYYCARISSHHGSSWCTTFDYWGQGALVTVSA
VL 3: DTVMTQSPLSLPVTPGEPASISCRSSQSLLNSNGYNYLDWYVQKPGQSPQLLIYLGSNRASGVPDRFSGSGSGTDFTLKISRVEAEDVGVYYCMQPLQTPLFTFGPGTKVEIK
VH 4: B3 VH 4
VL 4: B3 VL 4
Regarding B4, in test [15], the “IC50, pseudovirus neutralization” value was 3.57 nM and the “IC80, pseudovirus neutralization” value turned out to be 15.5 nM. In test [16], the “IC50, pseudovirus neutralization” value was determined as 20.9 nM and the “IC80, pseudovirus neutralization” value stood at 49.7 nM.

For the origin of these results see patent US20240109955A1 (published 2024).
